The exact form of at least one protein or probe is not confirmed. A negative result means that nothing was seen under these conditions. Protein sequences can lack the tags named with them.
Target: T1, PA3973-His6 (Pseudomonas aeruginosa PAO1161) (UniProt Q9HX43)
T1 sequence (looked up, limits assumed): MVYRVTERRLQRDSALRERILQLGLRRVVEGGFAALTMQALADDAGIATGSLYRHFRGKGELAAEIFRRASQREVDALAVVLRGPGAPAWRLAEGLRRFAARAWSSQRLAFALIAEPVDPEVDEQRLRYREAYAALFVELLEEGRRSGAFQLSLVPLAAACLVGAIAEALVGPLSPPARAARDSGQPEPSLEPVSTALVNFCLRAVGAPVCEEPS
Assay: EMSA
Details: with NS competitor DNA, 10 mM Tris-HCl pH 8.5, 10 mM MgCl2, 100 mM KCl, 0.1 mg/mL BSA, ~100 ng DNA plus ~300 ng NS competitor in 20 uL, 23 C, 30 min, 1.5% agarose, 0.5x TBE, 4 C, recombinant protein, protein details: C-terminal His6, probe letters rebuilt from the primers and the genome

| Sequence | binding result (concentration-dependent, strongest of the targets) | binding result |
| --- | --- | --- |
| GCAAGCTTAGACCATGACTGAATCCGGATTCACTTTTTCCCAGTGAATCACGCTTCAGGCTTTGCCTAAAGAGACATACAGGTCGCGCAGGCCGGCATTTCAGCCAGCCGCGGAACGGCTTCAGGCGGACTTGGTGACGATCGGCTGGCACAGCAGCCAATCGTGCAGCAGGGTCTGCAACTCTTCGAACTTGACCGGCTTGGCCATGTAGTCGCTCATGCCCGCCGCCAGGCAGCGCTCGCGATCGCCGCTGTGGCTGTGGGCGGTCAACGCCAGCACCGGCAGTTCCGCGCAGCCGGGCAGCGCGCGGATCGCCCGACAGGTGGCGAAGCCGTCCATCACCGGCATCTGGCAGTCGAGCAGTACGCCGTCGAATTCGC (double strand) [PA3973p] | binds |  |
| GCGGATCCTCACGCTTCAGGCTTTGCCTAAAGAGACATACAGGTCGCGCAGGCCGGCATTTCAGCCAGCCGCGGAACGGCTTCAGGCGGACTTGGTGACGATCGGCTGGCACAGCAGCCAATCGTGCAGCAGGGTCTGCAACTCTTCGAACTTGACCGGCTTGGCCATGTAGTCGCTCATGCCCGCCGCCAGGCAGCGCTCGCGATCGCCGCTGTGGCTGTGGGCGGTCAACGCCAGCACCGGCAGTTCCGCGCAGCCGGGCAGCGCGCGGATCGCCCGACAGGTGGCGAAGCCGTCCATCACCGGCATCTGGCAGTCGAGCAGTACGCCGTCGAATTCGC (double strand) [PA3973p*] |  | no binding |

— PMC9736018
